Pooled drug test results. Numbers come from NIAID ChemDB, via PubChem.

Common to all: toxicity to cultured cells; cells: H9; endpoint: CC50

Rows are shuffled and stem from different studies.

{"compound": "CC(=O)O[C@@H]1[C@H](OC(=O)CC(C)C)c2c(ccc3ccc(=O)oc23)OC1(C)C", "value": ">52 µM"}
{"compound": "COc1cc([C@H]2c3c(cc4c(c3OC)OCO4)C[C@H]3COC(=O)[C@@H]32)cc(C)c1OC", "value": "194 µM"}
{"compound": "CCOC(=O)c1cc(C(=O)c2cccs2)n2ccc(C(=O)NCc3ccccn3)cc12", "read by": "MTT", "value": "53.4 µM"}
{"compound": "C=C(C)[C@@H]1CC[C@]2(C(=O)OCC(=O)c3ccccc3)CC[C@]3(C)[C@H](CC[C@@H]4[C@@]5(C)CC[C@H](NC(=O)CC(C)(C)CC(=O)O)C(C)(C)[C@@H]5CC[C@]43C)[C@@H]12", "value": "23.6 µM"}
{"compound": "Nc1ccn([C@H]2CS[C@@H](CO)O2)c(=O)n1", "value": "17 µM"}
{"compound": "C=C(CC[C@@H](C)[C@H]1CCC2C3=C([C@@H](O)[C@H](OC(C)=O)[C@@]21C)[C@@]1(C)C[C@@H](O)[C@H](OS(=O)(=O)O)C(C)(C)[C@@H]1CC3)C(C)C", "read by": "MTT", "value": "<50 µM"}
{"compound": "N#Cc1cccc(S(=O)(=O)N(Cc2c(Cl)cccc2Cl)c2cccc(C(=O)NC3CCC3)c2)c1", "read by": "absorbance", "value": ">33 µM"}
{"compound": "Cc1cn(C2C[C@H](CO)[C@@H](CO)C2)c(=O)[nH]c1=O", "value": "~100 µg/mL"}
{"compound": "COc1cc2c(c(OC)c1OC)-c1c(cc3c(c1OC)OCO3)C[C@@H](C)[C@@H](C)C2", "value": "45 µg/mL"}
{"compound": "COc1ccc2[nH]c(C(=O)N3CCN(c4ncccc4NC(C)C)CC3)cc2c1", "value": "63 µM"}
{"compound": "CC(=O)O[C@H]1[C@H](O)C2=C(CC[C@H]3C(C)(C)[C@@H](OS(=O)(=O)O)[C@H](OC(=O)CCCCCCCCCCCCCCCO)C[C@]23C)C2CC[C@H]([C@H](C)CCC3(C(C)(C)O)CO3)[C@]21C", "read by": "MTT", "value": "<50 µM"}
{"compound": "CCOC(=O)c1cc(C(=O)c2cccc(Br)c2)n2ccc(C(=O)NCc3ccccn3)cc12", "read by": "MTT", "value": "54 µM"}
{"compound": "COC(=O)C12OC[C@]34[C@H]([C@@H](O)[C@@H]1O)[C@@]1(C)[C@H](O)C(=O)C(O[C@@H]5O[C@H](CO)[C@@H](O)[C@H](O)[C@H]5O)=C(C)[C@@H]1C[C@H]3OC(=O)[C@H](OC(=O)CC(C)C)[C@@H]24", "value": "4 µM"}
{"compound": "O=C(/C=C/c1ccccc1)c1ccccn1", "read by": "cell count", "value": "0.21 µg/mL"}
{"compound": "CC1=C(/C=C/C(C)=C\\C=C\\C(C)=C\\C(=O)O)C(C)(C)CCC1", "read by": "MTT", "value": ">1 µM"}
{"compound": "CC(CC(=O)O)CC(=O)O[C@H]1CC[C@@]2(C)C(CC[C@]3(C)C2CC=C2C4CC(C)(C)CC[C@]4(C(=O)O)CC[C@]23C)C1(C)C", "read by": "cell count", "value": "27.5 µg/mL"}
{"compound": "CC1=CCC[C@H]2[C@](C)(CC3=CC(=O)C=CC3=O)[C@@H](C)CC[C@]12C", "value": ">1 µg/mL"}
{"compound": "CCCCCn1ccc(=O)c2cnc(-c3ccncc3)nc21", "value": "25 µM"}
{"compound": "C=C(C)[C@@H]1CC[C@]2(C(=O)O)CC[C@]3(C)[C@H](CC[C@@H]4[C@@]5(C)CC[C@H](OC(=O)COCC(=O)O)C(C)(C)[C@@H]5CC[C@]43C)[C@@H]12", "value": "11.7 µM"}
{"compound": "COc1c(Br)c(C(=O)O)c(-c2c3c(c(OC)c(Br)c2C(=O)ONCCN2CCCC2)OCO3)c2c1OCO2", "value": ">100 µg/mL"}
{"compound": "C=C(C)[C@@H]1CC[C@]2(C(=O)O)CC[C@]3(C)[C@H](CC[C@@H]4[C@@]5(C)CC[C@H](O)C(C)(C)[C@@H]5CC[C@]43C)[C@@H]12", "value": "12.9 µM"}
{"compound": "C=C(C)[C@@H]1CC[C@]2(COC(=O)CC(C)(C)CC(=O)O)CC[C@]3(C)[C@H](CC[C@@H]4[C@@]5(C)CC=CC(C)(C)[C@@H]5CC[C@]43C)[C@@H]12", "value": "31.9 µM"}
{"compound": "C=C(CC[C@@H](C)[C@H]1CC=C2C3=C([C@@H](O)[C@H](OC(C)=O)[C@@]21C)[C@@]1(C)C[C@@H](O)[C@H](OS(=O)(=O)O)C(C)(C)[C@@H]1CC3)C(C)C", "read by": "MTT", "value": "<25 µM"}
{"compound": "CC(C)Nc1cccnc1N1CCN(C(=O)c2cc3cc(F)ccc3[nH]2)CC1", "value": ">10 µM"}
{"compound": "CC(C)(CC(=O)O)CC(=O)O[C@H]1CC[C@@]2(C)C(CC[C@]3(C)C2CC=C2C4CC(C)(C)CC[C@]4(C(=O)O)CC[C@]23C)C1(C)C", "read by": "cell count", "value": "14.2 µg/mL"}
{"compound": "C=C(C)[C@@H]1CC[C@]2(COC(=O)CC(C)(C)C(=O)O)CC[C@@H]3[C@H](CC[C@H]4[C@H]3CC[C@H]3C(C)(C)[C@@H](O)CC[C@]43C)[C@@H]12", "value": "37.4 µM"}
{"compound": "CC(C)CCC[C@@H](C)[C@H]1CCC2C3CCC4C[C@@H](O[C@@H]5O[C@H](COS(=O)(=O)[O-])[C@@H](O[C@H]6O[C@H](COS(=O)(=O)[O-])[C@@H](O[C@H]7O[C@H](COS(=O)(=O)[O-])[C@@H](O[C@H]8O[C@H](COS(=O)(=O)[O-])[C@@H](OS(=O)(=O)[O-])[C@H](OS(=O)(=O)[O-])[C@H]8OS(=O)(=O)[O-])[C@H](OS(=O)(=O)[O-])[C@H]7OS(=O)(=O)[O-])[C@H](OS(=O)(=O)[O-])[C@H]6OS(=O)(=O)[O-])[C@H](OS(=O)(=O)[O-])[C@H]5OS(=O)(=O)[O-])CC[C@]4(C)C3CC[C@@]21C", "value": "550 µg/mL"}
{"compound": "CCc1cn([C@@H]2C[C@H](F)[C@@H](CO)O2)c(=O)[nH]c1=O", "value": "400 µM"}
{"compound": "C/C=C(/C)C(=O)OC1c2cc3c(c(OC)c2-c2c(cc4c(c2OC)OCO4)C[C@H](C)[C@]1(C)O)OCO3", "value": "50 µg/mL"}
{"compound": "C[C@H]1[C@H](C)CC[C@]2(C(=O)O)CC[C@]3(C)C(=CC[C@@H]4[C@@]5(C)CC[C@H](OC(=O)CC(C)(C)C(=O)O)C(C)(C)[C@@H]5CC[C@]43C)[C@H]12", "value": "49.5 µM"}
{"compound": "C=C(C)[C@@H]1CC[C@]2(COC(=O)CC(C)(C)C(=O)O)CC[C@@H]3[C@H](CC[C@H]4[C@H]3CC[C@H]3C(C)(C)[C@@H](OC(=O)C(C)(C)CC(=O)O)CC[C@]43C)[C@@H]12", "value": "38.6 µM"}
{"compound": "C=C(C)[C@@H]1CC[C@]2(COC(=O)C34CC5CC(CC(C5)C3)C4)CC[C@]3(C)[C@H](CC[C@@H]4[C@@]5(C)CC[C@H](OC(=O)CC(C)(C)CC(=O)O)C(C)(C)[C@@H]5CC[C@]43C)[C@@H]12", "value": ">133.9 µM"}
{"compound": "CC1(C)CC[C@]2(C(=O)O)CC[C@]3(C)[C@H](CC[C@@H]4[C@@]5(C)CC[C@H](OC(=O)CC(C)(C)C(=O)O)C(C)(C)[C@@H]5CC[C@]43C)[C@@H]2C1", "read by": "cell count", "value": "13.7 µg/mL"}
{"compound": "COc1c(OCc2ccccc2)c(OCc2ccccc2)cc(CO)c1-c1c(CO)cc(OCc2ccccc2)c(OCc2ccccc2)c1OC", "value": ">100 µg/mL"}
{"compound": "CCOC(=O)c1cc(C(=O)c2ccccc2)n2ccc(C(=O)N[C@H](C)c3ccccc3)cc12", "read by": "MTT", "value": "216 µM"}
{"compound": "CCCCn1ccc(=O)c2cnc(-c3ccncc3)nc21", "value": "35 µM"}
{"compound": "CC1(C)Oc2ccc3ccc(=O)oc3c2[C@@H](OC(=O)C23CCC(C)(C(=O)O2)C3(C)C)[C@H]1OC(=O)C12CCC(C)(C(=O)O1)C2(C)C", "value": ">32 µM"}
{"compound": "C=C(C)[C@@H]1CC[C@]2(/C=N/O)CC[C@]3(C)[C@H](CC[C@@H]4[C@@]5(C)CC/C(=N\\O)C(C)(C)[C@@H]5CC[C@]43C)[C@@H]12", "value": "5.47 µM"}
{"compound": "COc1c2c(cc3c1[C@H](c1ccc(O)c(Oc4ccccc4)c1)[C@H]1C(=O)OC[C@@H]1C3)OCO2", "value": "454 µM"}
{"compound": "COc1c(Br)c(C(=O)O)c(-c2c3c(c(OC)c(Br)c2C(=O)O)OCO3)c2c1OCO2", "value": ">100 µg/mL"}
{"compound": "CC1(C)CC[C@]2(C(=O)O)CC[C@]3(C)[C@H](CC[C@@H]4[C@@]5(C)CC[C@H](OC(=O)CCCC(=O)O)C(C)(C)[C@@H]5CC[C@]43C)[C@@H]2C1", "read by": "cell count", "value": "12.9 µg/mL"}
{"compound": "C=C(C)[C@@H]1CC[C@]2(COC(=O)CC3(CC(=O)O)CCCC3)CC[C@]3(C)[C@H](CC[C@@H]4[C@@]5(C)CC[C@H](O)C(C)(C)[C@@H]5CC[C@]43C)[C@@H]12", "value": "13.3 µM"}
{"compound": "C#C[C@@]1(CO)C=C[C@H](n2cc(C)c(=O)[nH]c2=O)O1", "read by": "cell count", "value": ">50 µM"}
{"compound": "CC1(C)Oc2ccc3ccc(=O)oc3c2[C@@H](OC(=O)C23CCC(C)(C(=O)O2)C3(C)C)[C@H]1OC(=O)C12CCC(C)(C(=O)O1)C2(C)C", "value": "35 µM"}
{"compound": "O=C(O)C[C@H]1C(=O)O[C@H]2[C@H](OC(=O)c3cc(O)c(O)c(O)c3)[C@@H](OC(=O)c3cc(O)c(O)c4c3[C@H]1[C@H](O)C(=O)O4)[C@H](OC(=O)c1cc(O)c(O)c(O)c1)O[C@@H]2COC(=O)c1cc(O)c(O)c(O)c1", "value": ">20 µg/mL"}
{"compound": "CCOC(=O)c1cc(C(=O)c2cccc(N)c2)n2ccc(C(=O)NCc3ccccn3)cc12", "read by": "MTT", "value": "133.5 µM"}
{"compound": "O=c1cc[nH]c2nc(-c3ccncc3)ncc12", "value": ">100 µM"}
{"compound": "COc1c2c(c(Br)c3c1-c1c(c(Br)c4c(c1OC)OCO4)C[C@H](C)[C@H](C)C3)OCO2", "value": ">100 µg/mL"}
{"compound": "CCOC(=O)c1cc(C(=O)c2ccc(N)cc2)n2ccc(C(=O)NCc3ccccn3)cc12", "read by": "MTT", "value": "159.5 µM"}
{"compound": "Cc1cn([C@H]2C[C@H](N=[N+]=[N-])[C@@H](CO)O2)c(=O)[nH]c1=O", "value": ">30 µg/mL"}
{"compound": "COc1c2c(cc3c1-c1c(cc4c(c1OC)OCO4)C(OC(=O)c1ccccc1)[C@H](C)[C@@H](C)C3)OCO2", "value": "50 µg/mL"}
{"compound": "C[C@@]12CCC[C@@](C)(C(=O)O)[C@H]1CC[C@@]13C[C@@H](CC[C@H]12)[C@](O)(CO)C3", "value": ">4 µg/mL"}
{"compound": "Nc1nc2c(ncn2[C@@H]2O[C@H](COP(=O)(O)O)[C@@H](O)[C@H]2O)c(=O)o1", "value": ">30 µg/mL"}
{"compound": "COc1cc2c(c(OC)c1OC)-c1c(cc(OC)c(OC)c1OC)C[C@H](C)[C@H](C)C2", "value": "9 µg/mL"}
{"compound": "CCn1ccc(=O)c2cnc(-c3ccncc3)nc21", "value": "50 µM"}

For reference, 7 entries again:

{"compound": "COc1c(Br)c(C(=O)O)c(-c2c3c(c(OC)c(Br)c2C(=O)ONCCN2CCCC2)OCO3)c2c1OCO2", "value": ">100 µg/mL"}
{"compound": "CC1(C)CC[C@]2(C(=O)O)CC[C@]3(C)[C@H](CC[C@@H]4[C@@]5(C)CC[C@H](OC(=O)CC(C)(C)C(=O)O)C(C)(C)[C@@H]5CC[C@]43C)[C@@H]2C1", "read by": "cell count", "value": "13.7 µg/mL"}
{"compound": "COC(=O)C12OC[C@]34[C@H]([C@@H](O)[C@@H]1O)[C@@]1(C)[C@H](O)C(=O)C(O[C@@H]5O[C@H](CO)[C@@H](O)[C@H](O)[C@H]5O)=C(C)[C@@H]1C[C@H]3OC(=O)[C@H](OC(=O)CC(C)C)[C@@H]24", "value": "4 µM"}
{"compound": "CCOC(=O)c1cc(C(=O)c2cccs2)n2ccc(C(=O)NCc3ccccn3)cc12", "read by": "MTT", "value": "53.4 µM"}
{"compound": "COc1c2c(cc3c1-c1c(cc4c(c1OC)OCO4)C(OC(=O)c1ccccc1)[C@H](C)[C@@H](C)C3)OCO2", "value": "50 µg/mL"}
{"compound": "Nc1ccn([C@H]2CS[C@@H](CO)O2)c(=O)n1", "value": "17 µM"}
{"compound": "COc1cc2c(c(OC)c1OC)-c1c(cc(OC)c(OC)c1OC)C[C@H](C)[C@H](C)C2", "value": "9 µg/mL"}

CCn is the concentration with n% toxicity to the cells.